Pooled drug test results. Numbers come from NIAID ChemDB, via PubChem.

Shared fields: enzyme or target tests; organism: HIV-1; target: Reverse transcriptase

An empty or dashed field is not shown. ICn: concentration for n% inhibition. Rows are shuffled and stem from different studies.

O=C(N[C@H](C(=O)N[C@@H](Cc1ccc(OCc2ccccc2)cc1)C(=O)C(F)(F)C(=O)NCc1ccccc1)C1CCCC1)OCc1ccccc1 ; read-out: IC50 ; result: 1 µM
O=C(/C=C/c1ccc(O)c(O)c1)O[C@@H]1CC(O)(C(=O)O)C[C@@H](OC(=O)/C=C/c2ccc(O)c(O)c2)C1O ; read-out: Ki ; result: 1.31 µM
Cc1c(Sc2ccccc2)n(COCCO)c(=O)[nH]c1=O ; read-out: IC50 ; mutations: RT-Y188L ; result: >5 µM
Cc1ccnc(N2C(=O)CSC2c2c(F)cccc2Cl)n1 ; read-out: IC50 ; read by: nucleotide incorporation / radiometric ; result: 1.79 µM
CCN(Cc1ccccc1)C(=O)C(F)(F)C(=O)[C@H](Cc1ccc(OCc2ccccc2)cc1)NC(=O)[C@@H](NC(=O)OCc1ccccc1)C(C)C ; read-out: IC50 ; result: 1.75 µM
Cc1cc(C)c(-n2nnnc2SCC(=O)Nc2ccc(S(N)(=O)=O)cc2Cl)c(C)c1 ; read-out: IC50 ; read by: nucleotide incorporation / radiometric ; result: <2 µM
COc1c2c(cc3c1-c1c(cc4c(c1OC)OCO4)C[C@H](C)[C@H](C)C3)OCO2 ; read-out: IC50 ; read by: nucleotide incorporation ; result: 100 µM
COc1cc(C)nc(N2C(=O)CSC2c2c(F)cccc2Cl)n1 ; read-out: IC50 ; read by: nucleotide incorporation / radiometric ; result: 0.85 µM
Oc1cc(O)c2c(c1)O[C@H](c1cc(O)c(O)c(O)c1)[C@H](O)C2 ; read-out: IC50 ; result: >10 µM
Cc1cn([C@H]2CC[C@@H](OCP(=O)(O)OP(=O)(O)OP(=O)(O)O)O2)c(=O)[nH]c1=O ; read-out: IC50 ; read by: nucleotide incorporation / radiometric ; result: 5.4 µM
Oc1cc(O)c2c(c1)O[C@H](c1ccc(O)c(O)c1)[C@H](O)C2 ; read-out: IC50 ; result: >10 µM
CC(C)[C@H](NC(=O)OC(C)(C)C)C(=O)N[C@@H](Cc1ccc(OCc2ccccc2)cc1)C(=O)C(F)(F)C(=O)NCc1ccccc1 ; read-out: IC50 ; result: 100 µM
Cc1cc(C)cc(C(=O)c2cc(Cl)ccc2OCCN2C(=O)NC(=O)C(C)C2C)c1 ; conditions: pseudotyped ; read-out: Ki ; mutations: K103N ; read by: RT activity ; result: 4.7 µM
COc1cc(O)c2c(=O)c3c(O)c(-c4c(O)c([C@@H]5O[C@H](CO)[C@@H](O)[C@H](O)[C@H]5O)c(O)c5c(=O)cc(-c6ccc(O)c(O)c6)oc45)cc(O)c3oc2c1 ; read-out: Ki ; result: 43 µM
O=c1c(O)c(-c2ccc(O)c(O)c2)oc2cc(O)cc(O)c12 ; read-out: IC50 ; read by: RT activity / fluorescence ; result: 0.7 µM
c1ccc(CSc2nnnn2-c2cccc3ccccc23)nc1 ; read-out: IC50 ; read by: nucleotide incorporation / radiometric ; result: <2 µM
COc1c2ccccc2c(OC)c2c(C)cc(=O)[nH]c12 ; read-out: IC50 ; result: 153.9 µg/mL
O=C(OC1[C@H](OC(=O)c2cc(O)c(O)c(O)c2)CC(O)(C(=O)O)C[C@H]1OC(=O)c1cc(O)c(O)c(O)c1)c1cc(O)c(O)c(O)c1 ; read-out: IC50 ; result: 0.08 µM
CN(CC(O)C[C@@H](Cc1ccccc1)C(=O)N[C@H]1CCCC[C@@H]1NC(=O)c1ccc2ccccc2n1)[C@@H](CC1CCCCC1)C(=O)NC(C)(C)C ; read-out: IC50 ; result: 100 µM
O=C(O)C1=C[C@@H](OC(=O)c2cc(O)c(O)c(O)c2)[C@@H](O)[C@H](OC(=O)c2cc(O)c(O)c(O)c2)C1 ; read-out: IC50 ; result: 0.52 µM
Cc1cn([C@H]2CC[C@@H](COP(=O)(O)OP(=O)(O)OP(=O)(O)O)O2)c(=O)[nH]c1=O ; read-out: IC50 ; read by: nucleotide incorporation / radiometric ; result: 0.12 µM
Cc1cc(C)c(-n2nnnc2SCC(=O)Nc2ccc(Cl)cc2[N+](=O)[O-])c(C)c1 ; read-out: IC50 ; read by: nucleotide incorporation / radiometric ; result: <2 µM
O=c1cc(-c2ccccc2)oc2cc(O)c(O)c(O)c12 ; read-out: Ki ; result: 2.52 µM
Cc1cc(C)c(-n2nnnc2SCC(=O)Nc2cc(C)ccc2Cl)c(C)c1 ; read-out: IC50 ; read by: nucleotide incorporation / radiometric ; result: <2 µM
Cc1cn([C@H]2C=C[C@@H](OCP(=O)(O)OP(=O)(O)OP(=O)(O)O)O2)c(=O)[nH]c1=O ; read-out: IC50 ; read by: nucleotide incorporation / radiometric ; result: 0.39 µM
Cc1ccnc(N2C(=O)CSC2c2c(Cl)cccc2Cl)n1 ; read-out: IC50 ; read by: nucleotide incorporation / radiometric ; result: 0.92 µM
CC(Sc1nnnn1-c1cccc2ccccc12)C(=O)Nc1ccccc1[N+](=O)[O-] ; read-out: IC50 ; read by: nucleotide incorporation / radiometric ; result: <2 µM
Cc1cn([C@H]2CC[C@@H](COP(=O)(O)OP(=O)(O)OP(=O)(O)O)O2)c(=O)[nH]c1=O ; read-out: Ki ; strain or isolate: IIIB ; result: 0.0019 µM
Cc1cc(C)cc(C(=O)c2cc(Cl)ccc2OCCN2CCC(=O)NC2=O)c1 ; conditions: pseudotyped ; read-out: Ki ; mutations: V106A ; read by: RT activity ; result: >240 µM
COc1cc2c(c(OC)c1OC)-c1c(cc3c(c1OC)OCO3)C[C@H](C)[C@H](C)C2 ; read-out: IC50 ; mutations: Y188L ; read by: nucleotide incorporation ; result: 95 µM
Cc1cc(C)c(-n2nnnc2SCC(=O)Nc2ccccc2OC(F)F)c(C)c1 ; read-out: IC50 ; read by: nucleotide incorporation / radiometric ; result: <2 µM
Fc1cccc(F)c1C1SCc2nc3ccccc3n21 ; read-out: IC50 ; read by: nucleotide incorporation / radiometric ; result: 14.6 µM
Cc1cn([C@@H]2C[C@H](O)[C@@H](COP(=O)(O)O)O2)c(=O)[nH]c1=O ; read-out: IC50 ; result: >100 µM
COc1cc2c(c(OC)c1OC)-c1c(cc(OC)c(OC)c1OC)C[C@H](C)[C@H](C)C2 ; read-out: IC50 ; read by: nucleotide incorporation ; result: 34.5 µM
Cc1cc(C)c(-n2nnnc2SCC(=O)Nc2ccccc2Br)c(C)c1 ; read-out: IC50 ; read by: nucleotide incorporation / radiometric ; result: <2 µM
COc1cc(/C=C/C(=O)NCCc2ccc(O)cc2)ccc1O ; read-out: IC50 ; result: 9.6 µg/mL
O=C(O)C1=C[C@@H](OC(=O)c2cc(O)c(O)c(O)c2)[C@@H](OC(=O)c2cc(O)c(O)c(O)c2)[C@H](OC(=O)c2cc(O)c(O)c(O)c2)C1 ; read-out: IC50 ; result: 0.1 µM

A second listing of 4 rows from above:

compound | conditions | read-out | mutations | read by | strain or isolate | result
CN(CC(O)C[C@@H](Cc1ccccc1)C(=O)N[C@H]1CCCC[C@@H]1NC(=O)c1ccc2ccccc2n1)[C@@H](CC1CCCCC1)C(=O)NC(C)(C)C | - | IC50 | - | - | - | 100 µM
Cc1cc(C)c(-n2nnnc2SCC(=O)Nc2ccccc2OC(F)F)c(C)c1 | - | IC50 | - | nucleotide incorporation / radiometric | - | <2 µM
Cc1cc(C)cc(C(=O)c2cc(Cl)ccc2OCCN2C(=O)NC(=O)C(C)C2C)c1 | pseudotyped | Ki | K103N | RT activity | - | 4.7 µM
Cc1ccnc(N2C(=O)CSC2c2c(Cl)cccc2Cl)n1 | - | IC50 | - | nucleotide incorporation / radiometric | - | 0.92 µM